PubChem BioAssay AID1224833 | University of Georgia | 2016
Here is an unselected part of about 12,000 reagents tested. About 5,600 of all reagents (46%) were called active. 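Active calls cover z-scores past 1 in both directions, so they include lowered as well as raised rotavirus replication.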

Screen: 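Human genes whose knock-down alters rotavirus replication in monkey cells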 (primary screen)
Cells: monkey MA104 kidney cells
Knock-down reagent: siRNA pool against human genes, 50 nM
Timing: 48 h knock-down before infection; read 24 h after infection
Treatment: infection with rotavirus strain RV3 two days after transfection; infectious dose for this stage not given
Measurement: 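Rotavirus antigen per well by fluorescent immunoassay, normalised to non-targeting control wells on each plate and given as a standard z-score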
Reading the numbers: z-score vs non-targeting control: higher = more rotavirus replication than with non-targeting control
Hit rule: In these data the active calls have z-score vs non-targeting control at about -1 or lower, or at about 1 or higher
Calls: active = z-score beyond 1 either way; inactive = z-score within 1 of zero

| z-score vs non-targeting control | Outcome | gene |
| --- | --- | --- |
| -0.797 | inactive | LMCD1 (LIM and cysteine rich domains 1) |
| 0.985 | inactive | MPHOSPH8 (M-phase phosphoprotein 8) |
| 0.733 | inactive | RALB (RAS like proto-oncogene B) |
| 1.85 | active | CFAP119 (cilia and flagella associated protein 119) |
| -1.43 | active | RTBDN (retbindin) |
| 0.268 | inactive | ELOVL2 (ELOVL fatty acid elongase 2) |
| 0.821 | inactive | APOL5 (apolipoprotein L5) |
| -0.738 | inactive | COL4A2 (collagen type IV alpha 2 chain) |
| -1.76 | active | CETN1 (centrin 1) |
| -1.44 | active | SAMD9 (sterile alpha motif domain containing 9) |
| 3.49 | active | NRK (Nik related kinase) |
| 0.107 | inactive | LMOD1 (leiomodin 1) |
| 0.0949 | inactive | VHLL (VHL like) |
| -1.99 | active | SLAMF8 (SLAM family member 8) |
| 0.551 | inactive | FOXD4L4 (forkhead box D4 like 4) |
| 0.578 | inactive | SERPIND1 (serpin family D member 1) |
| -3.74 | active | SPIN3 (spindlin family member 3) |
| -1.46 | active | SLC35F3 |
| -0.211 | inactive | CDAN1 (codanin 1) |
| -0.371 | inactive | HEMGN (hemogen) |
| 2.42 | active | MOB3C (MOB kinase activator 3C) |
| 0.844 | inactive | DPP3 (dipeptidyl peptidase 3) |
| 0.918 | inactive | KCTD9 (potassium channel tetramerization domain containing 9) |
| -1.46 | active | DEPDC4 (DEP domain containing 4) |
| 0.973 | inactive | RTP1 (receptor transporter protein 1) |
| -1.01 | active | KRT73 (keratin 73) |
| -2.33 | active | TUBD1 (tubulin delta 1) |
| -1.1 | active | OXLD1 (oxidoreductase like domain containing 1) |
| 0.423 | inactive | KBTBD7 (kelch repeat and BTB domain containing 7) |
| 0.682 | inactive | ADH1B (alcohol dehydrogenase 1B (class I), beta polypeptide) |
| -3.16 | active | GGCT (gamma-glutamylcyclotransferase) |
| 0.112 | inactive | RPS25 (ribosomal protein S25) |
| -0.619 | inactive | COBLL1 (cordon-bleu WH2 repeat protein like 1) |
| 0.705 | inactive | ADAM22 (ADAM metallopeptidase domain 22) |
| -0.356 | inactive | PLXNB3 (plexin B3) |
| 0.704 | inactive | CDH6 (cadherin 6) |
| 0.0356 | inactive | RB1CC1 (RB1 inducible coiled-coil 1) |
| -0.302 | inactive | TJAP1 (tight junction associated protein 1) |
| -0.869 | inactive | KLF4 (KLF transcription factor 4) |
| -0.8 | inactive | NDC1 (NDC1 transmembrane nucleoporin) |
| -0.322 | inactive | CBX5 (chromobox 5) |
| 1.15 | active | TOR3A (torsin family 3 member A) |
| -2.36 | active | SELPLG (selectin P ligand) |
| -0.748 | inactive | AHNAK (AHNAK nucleoprotein) |
| -0.348 | inactive | SEMA4A (semaphorin 4A) |
| 1.54 | active | TEX101 (testis expressed 101) |
| -1.43 | active | SYNGR2 (synaptogyrin 2) |
| -1.26 | active | TTF2 (transcription termination factor 2) |
| -1.32 | active | HAT1 (histone acetyltransferase 1) |
| -2.03 | active | HSPA14 (heat shock protein family A (Hsp70) member 14) |
| -1.73 | active | LYPD6B (LY6/PLAUR domain containing 6B) |
| 0.227 | inactive | LSM7 |
| -2.72 | active | BSG (basigin (Ok blood group)) |
| -2.11 | active | ARCN1 (archain 1 coat protein complex I subunit delta) |
| 0.941 | inactive | PCSK5 (proprotein convertase subtilisin/kexin type 5) |
| -1.8 | active | DAP3 (death associated protein 3) |
| 0.884 | inactive | FRA10AC1 (FRA10A associated CGG repeat 1) |
| 1.78 | active | RSPH6A (radial spoke head 6 homolog A) |
| 0.132 | inactive | PRDM7 (PR/SET domain 7) |
| 1.32 | active | ACTN1 (actinin alpha 1) |
| -0.528 | inactive | ATP5MG (ATP synthase membrane subunit g) |
| 0.819 | inactive | NUBP2 (NUBP iron-sulfur cluster assembly factor 2, cytosolic) |
| 0.489 | inactive | MFAP1 (microfibril associated protein 1) |
| -1.59 | active | PTCD1 (pentatricopeptide repeat domain 1) |
| 0.202 | inactive | DEFB123 (defensin beta 123) |
| -1.87 | active | IQCE (IQ motif containing E) |
| -2.32 | active | EIF3B (eukaryotic translation initiation factor 3 subunit B) |
| -0.359 | inactive | OR8G1 (olfactory receptor family 8 subfamily G member 1) |
| 1.76 | active | TMEM178A (transmembrane protein 178A) |

Continued (9 carried over from the part before).
| z-score vs non-targeting control | Outcome | gene |
| --- | --- | --- |
| -0.528 | inactive | ATP5MG (ATP synthase membrane subunit g) |
| 0.819 | inactive | NUBP2 (NUBP iron-sulfur cluster assembly factor 2, cytosolic) |
| 0.489 | inactive | MFAP1 (microfibril associated protein 1) |
| -1.59 | active | PTCD1 (pentatricopeptide repeat domain 1) |
| 0.202 | inactive | DEFB123 (defensin beta 123) |
| -1.87 | active | IQCE (IQ motif containing E) |
| -2.32 | active | EIF3B (eukaryotic translation initiation factor 3 subunit B) |
| -0.359 | inactive | OR8G1 (olfactory receptor family 8 subfamily G member 1) |
| 1.76 | active | TMEM178A (transmembrane protein 178A) |
| -0.777 | inactive | RALGPS2 (Ral GEF with PH domain and SH3 binding motif 2) |
| -2.04 | active | ITGA8 (integrin subunit alpha 8) |
| -0.121 | inactive | UBTD1 (ubiquitin domain containing 1) |
| 1.32 | active | SCAMP5 |
| -0.627 | inactive | CHD9 (chromodomain helicase DNA binding protein 9) |
| -1.68 | active | CNKSR2 (connector enhancer of kinase suppressor of Ras 2) |
| -0.467 | inactive | ZNF844 (zinc finger protein 844) |
| -0.0643 | inactive | PCDHA7 (protocadherin alpha 7) |
| -0.904 | inactive | USP25 (ubiquitin specific peptidase 25) |
| -0.607 | inactive | CTBP2 (C-terminal binding protein 2) |
| 0.391 | inactive | SPC24 (SPC24 component of NDC80 kinetochore complex) |
| -2.87 | active | ISG15 (ISG15 ubiquitin like modifier) |
| 2.58 | active | ASCL4 (achaete-scute family bHLH transcription factor 4) |
| -0.553 | inactive | SIAE (sialic acid acetylesterase) |
| 1.6 | active | GAS2L2 (growth arrest specific 2 like 2) |
| -2.88 | active | NRAP (nebulin related anchoring protein) |
| -1.89 | active | RPS23 (ribosomal protein S23) |
| 0.981 | inactive | OR4P4 (olfactory receptor family 4 subfamily P member 4) |
| -0.54 | inactive | OR4N2 (olfactory receptor family 4 subfamily N member 2) |
| 0.0585 | inactive | HEPH (hephaestin) |
| -1.13 | active | CLDN17 (claudin 17) |
| -6.64 | active | HRAS (HRas proto-oncogene, GTPase) |
| -1.09 | active | LGALS9B (galectin 9B) |
| -1.26 | active | TFAP4 (transcription factor AP-4) |
| 0.74 | inactive | CISD1 (CDGSH iron sulfur domain 1) |
| -0.732 | inactive | COX6B2 (cytochrome c oxidase subunit 6B2) |
| -0.568 | inactive | PAQR6 (progestin and adipoQ receptor family member 6) |
| 1.02 | active | RALGAPA2 (Ral GTPase activating protein catalytic subunit alpha 2) |
| -0.885 | inactive | RTN1 (reticulon 1) |
| -0.207 | inactive | MRPL20 (mitochondrial ribosomal protein L20) |
| -0.413 | inactive | KRT76 (keratin 76) |
| -3.93 | active | MTRES1 (mitochondrial transcription rescue factor 1) |
| -0.799 | inactive | ZNF552 (zinc finger protein 552) |
| 1.41 | active | CFLAR (CASP8 and FADD like apoptosis regulator) |
| -0.866 | inactive | GRM1 (glutamate metabotropic receptor 1) |
| -0.79 | inactive | THBS3 (thrombospondin 3) |
| 0.0972 | inactive | HACD3 (3-hydroxyacyl-CoA dehydratase 3) |
| -1.43 | active | SLC25A34 |
| -1.16 | active | NOG (noggin) |
| -0.776 | inactive | L1CAM-AS1 (L1CAM antisense RNA 1) |
| 0.891 | inactive | HEXB (hexosaminidase subunit beta) |
